Results of unrelated studies side by side (data: NIAID ChemDB).

Shared fields: growth or infection tests; agent: Herpes simplex virus 2; cells: VERO; endpoint: EC50

Lines come from different laboratories, so protocols vary.

| smiles | strain | method | result |
|---|---|---|---|
| CCOC(=O)P(=O)(OC)OC[C@H]1O[C@@H](n2cc(I)c(=O)[nH]c2=O)C[C@@H]1O | K979 | cytopathic effect | >5.9 µM |
| O=c1[nH]c(=O)n([C@@H]2O[C@@H](CO)C[C@H]2F)cc1Cl | - | - | >40 µM |
| CCn1cc(C(N)=O)c(=O)c2ccc(N3CCN(C)CC3)cc21 | - | plaque count | >50 µg/mL |
| COc1cc2c(cc1-c1coc3cc4occc4cc3c1=O)OCO2 | 186 | plaque count | 18.5 µg/mL |
| CC(=O)CCC(=O)O[C@H]1C[C@H](n2cc(/C=C/Br)c(=O)[nH]c2=O)O[C@@H]1COP1(=O)OCc2ccccc2O1 | G (TK+) | plaque count | >128 µg/mL |
| CCn1cc(C(N)=O)c(=O)c2ccc(I)cc21 | - | plaque count | >100 µg/mL |
| O=c1ccn(-c2ccc(F)cc2F)c2cc(-c3ccncc3)ccc12 | G | - | 0.078 µg/mL |
| COc1cc(O)c(CC=C(C)C)c(O)c1C(=O)/C=C/c1ccc(O)cc1 | - | cytopathic effect | 1.5 µg/mL |
| O=C(O)CP(=O)(O)OC[C@H]1O[C@@H](n2cc(CCCl)c(=O)[nH]c2=O)C[C@@H]1O | TK- | cytopathic effect | >232 µM |
| Cc1cccc2c1OP(=O)(OC[C@H]1O[C@@H](n3cc(/C=C/Br)c(=O)[nH]c3=O)C[C@@H]1OC(=O)[C@H](C)N)OC2 | G (TK+) | plaque count | >128 µg/mL |
| COC(=O)[C@H](C)NP(=O)(OC[C@H]1C/C1=C/n1cnc2c(OC)nc(N)nc21)Oc1ccccc1 | - | plaque count | 0.6 µM |
| CC#Cc1cn([C@@H]2O[C@H](COP(=O)(NCCC)Oc3ccccc3)[C@@H](O)[C@@H]2O)c(=O)[nH]c1=O | SC16 | plaque count | >100 µM |
| Nc1nc2c(ncn2[C@H]2O[C@@H](CO)C[C@H]2F)c(=O)[nH]1 | - | - | >100 µM |
| CC#Cc1cn([C@@H]2O[C@H](COP(=O)(O)Oc3cccc(Cl)c3)[C@@H](O)[C@@H]2O)c(=O)[nH]c1=O | SC16 | plaque count | >10 µM |
| O=c1[nH]c(=O)n([C@H]2C[C@H](O)[C@@H](COP3(=O)OCc4ccccc4O3)O2)cc1/C=C/Br | G (TK+) | plaque count | >128 µg/mL |
| NC(=O)c1csc([C@@H]2O[C@H](CO)[C@@H](O)[C@H]2O)n1 | MS | cytopathic effect | 160 µg/mL |
| CC(C)(C)C(=O)OCOP(=O)(COCCn1cnc2c(N)ncnc21)OCOC(=O)C(C)(C)C | G | plaque count | 0.6 µM |
| CC(=O)O[C@H]1C[C@H](n2cc(/C=C/Br)c(=O)[nH]c2=O)O[C@@H]1COP1(=O)OCc2cccc(C)c2O1 | G (TK+) | plaque count | >128 µg/mL |
| CC#Cc1cn([C@@H]2O[C@H](COP(=O)(O)OCC(F)(F)F)[C@@H](O)[C@@H]2O)c(=O)[nH]c1=O | SC16 | plaque count | >100 µM |
| Nc1nc2c(ncn2[C@H]2C[C@@]23C[C@H]3CO)c(=O)[nH]1 | - | plaque count | >50 µM |
| O=c1[nH]c(=O)n([C@H]2C[C@H](O)[C@@H](COP3(=O)OCc4cc(-c5ccccc5)ccc4O3)O2)cc1/C=C/Br | G (TK+) | plaque count | >128 µg/mL |
| COc1cc(O)c2c(=O)cc(-c3ccc(OC)c(-c4c(O)cc(O)c5c(=O)cc(-c6ccc(O)cc6)oc45)c3)oc2c1 | UW-268 | plaque count | 0.83 µg/mL |
| N/C(=N/O)c1cn([C@@H]2O[C@H](CO)[C@@H](O)[C@@H]2O)c2ncnc(N)c12 | MS | plaque count | >100 µM |
| Nc1nc2c(ncn2[C@H]2C[C@]23C[C@@H]3CO)c(=O)[nH]1 | - | plaque count | >50 µM |
| CC/C=C\C/C=C\C/C=C\C/C=C\C/C=C\CCCC(=O)OC(CO[C@H]1O[C@H](CS(=O)(=O)O)[C@@H](O)[C@H](O)[C@H]1O)OC(=O)CCCCCCCCCCCCCCC | - | plaque count | 8.5 µg/mL |
| O=c1c(O)c(-c2ccc(O)c(O)c2)oc2cc(O)cc(O)c12 | - | - | <60 µg/mL |
| NC(=O)c1cn([C@@H]2O[C@H](CO)[C@@H](O)[C@@H]2O)c2ncnc(N)c12 | MS | plaque count | 28 µM |
| Nc1nc2c(ncn2[C@H]2C[C@@]23C[C@@H]3CO)c(=O)[nH]1 | - | plaque count | >50 µM |
| Nc1ncnc2c1ncn2[C@@H]1O[C@@H](CO)CC1F | - | - | >100 µM |
| CCN1C=C2C(=O)CN=C2c2ccc(-c3ccncc3)cc21 | - | plaque count | >100 µg/mL |
| CCOC(=O)CP(=O)(OC)OC[C@H]1O[C@@H](n2cc(I)c(=O)[nH]c2=O)C[C@@H]1O | K979 | cytopathic effect | >57.9 µM |
| CC#Cc1cn([C@@H]2O[C@H](COP(=O)(O)Oc3ccc(Cl)cc3)[C@@H](O)[C@@H]2O)c(=O)[nH]c1=O | SC16 | plaque count | 100 µM |
| CC1OP(=O)(OC[C@H]2O[C@@H](n3cc(/C=C/Br)c(=O)[nH]c3=O)C[C@@H]2O)Oc2cccc(Cl)c21 | G (TK+) | plaque count | >128 µg/mL |
| COC(=O)[C@H](C)NP(=O)(OCC1C/C1=C/n1cnc2c(N)ncnc21)Oc1ccccc1 | - | plaque count | >1 µM |
| COc1c2c(cc3ccoc13)C(=O)[C@H]1c3cc4c(cc3OC[C@H]1O2)OCO4 | 186 | plaque count | >50 µg/mL |
| O=C(O)CP(=O)(O)O | TK- | cytopathic effect | >71.4 µM |
| O=C1c2cc3ccoc3cc2O[C@@H]2COc3cc4c(cc3[C@]12O)OCO4 | 186 | plaque count | >50 µg/mL |
| Cc1cccc2c1OP(=O)(OC[C@H]1O[C@@H](n3cc(/C=C/Br)c(=O)[nH]c3=O)C[C@@H]1OC(=O)[C@H]1CCCN1)OC2 | G (TK+) | plaque count | >128 µg/mL |
| O=c1c(O)c(-c2ccc(O)cc2)oc2cc(O)cc(O)c12 | - | - | 1 µg/mL |
| CCn1cc(C(N)=O)c(=O)c2ccc(-c3ccc(N)cc3)cc21 | - | plaque count | >6.25 µg/mL |
| CC1=C(C)C(CO)(CO)C[C@H]1n1cnc2c(N)ncnc21 | - | cytopathic effect | >100 µg/mL |
| Nc1nc(NC2CC2)c2ncn(C=C3CC3CO)c2n1 | - | plaque count | 41 µM |
| CC1=C(C)C(CO)(CO)C[C@H]1n1ccc(N)nc1=O | - | cytopathic effect | >100 µg/mL |
| CC(=O)CCC(=O)O[C@H]1C[C@H](n2cc(/C=C/Br)c(=O)[nH]c2=O)O[C@@H]1COP1(=O)OCc2cccc(C)c2O1 | G (TK+) | plaque count | >128 µg/mL |
| O=C(O[C@@H]1Cc2c(O)cc(O)cc2O[C@@H]1c1cc(O)c(O)c(O)c1)c1cc(O)c(O)c(O)c1 | - | - | 2.6 µM |
| CCn1cc(C2=NCCN2)c(=O)c2ccc(-c3ccncc3)cc21 | - | plaque count | >100 µg/mL |
| O=c1[nH]c(=O)n([C@H]2C[C@H](O)[C@@H](CO)O2)cc1/C=C/Br | - | plaque count | 8 µM |
| Nc1ncnc2ncn(COCCCl)c12 | G | cytopathic effect | >128 µg/mL |

For reference, 7 entries again:

| smiles | strain | method | result |
|---|---|---|---|
| O=c1ccn(-c2ccc(F)cc2F)c2cc(-c3ccncc3)ccc12 | G | - | 0.078 µg/mL |
| O=C1c2cc3ccoc3cc2O[C@@H]2COc3cc4c(cc3[C@]12O)OCO4 | 186 | plaque count | >50 µg/mL |
| CCn1cc(C2=NCCN2)c(=O)c2ccc(-c3ccncc3)cc21 | - | plaque count | >100 µg/mL |
| CC(C)(C)C(=O)OCOP(=O)(COCCn1cnc2c(N)ncnc21)OCOC(=O)C(C)(C)C | G | plaque count | 0.6 µM |
| COc1cc(O)c2c(=O)cc(-c3ccc(OC)c(-c4c(O)cc(O)c5c(=O)cc(-c6ccc(O)cc6)oc45)c3)oc2c1 | UW-268 | plaque count | 0.83 µg/mL |
| CC#Cc1cn([C@@H]2O[C@H](COP(=O)(O)Oc3ccc(Cl)cc3)[C@@H](O)[C@@H]2O)c(=O)[nH]c1=O | SC16 | plaque count | 100 µM |
| Cc1cccc2c1OP(=O)(OC[C@H]1O[C@@H](n3cc(/C=C/Br)c(=O)[nH]c3=O)C[C@@H]1OC(=O)[C@H](C)N)OC2 | G (TK+) | plaque count | >128 µg/mL |

An empty or dashed field is not shown. ECn: concentration that inhibits the pathogen or its effect by n%.